# Laboratory results published in PubChem BioAssay AID720706 (Broad Institute, 2013).
# The entries are a selection whose mix differs from that of the whole data set. Some structures show a salt or complex split into parts, the way the source records it. Activity calls are given as the source filed them.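 How the source made its calls: active means significant combined selectivity score with lowered wild-type GFP, culture density cut under 30%, mutant RFP and density less affected; inactive means any of these conditions unmet.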
# Test: GFP drop in mixed WT/humanized-ribosome E. coli culture – GFP/RFP fluorescence, OD600, single point, bacterial rRNA inhibitor project, primary screen (AID 720706)
# Settings: E. coli WT GFP vs humanized-ribosome RFP mutants, 24 h, hits give low values, DMSO median 0, no signal -100
row,Compound,GFP signal change (wild-type ribosome)
1,O=C(OC1CN2CCC1CC2)c1ccccc1 (stereo not given),inactive: 4.1%
2,Cc1c([N+](=O)[O-])cc([N+](=O)[O-])c(Br)c1[N+](=O)[O-],inactive: -0.445%
3,Cc1ccc(OP(=O)(Nc2ccccn2)Oc2ccc(C)cc2)cc1,inactive: -22.8%
4,CC(NC(=O)COC(=O)C(O)(c1ccccc1)c1ccccc1)c1ccccc1 (stereo not given),inactive: -6.93%
5,Cc1ccccc1OP(=O)(Nc1ccccn1)Oc1ccccc1C,inactive: -30.2%
6,O=c1c2cc([N+](=O)[O-])ccc2[nH]c2c([N+](=O)[O-])cc([N+](=O)[O-])cc12,inactive: 9.28%
7,CCCCCOc1ccc(NP(C)(=O)Oc2ccc(Cl)cc2Cl)cc1 (stereo not given),inactive: 12.2%
8,O=[N+]([O-])c1cc([N+](=O)[O-])c(OC2CCCCC2O)c([N+](=O)[O-])c1 (stereo not given),inactive: -7.35%
9,CN(C)C(=O)Oc1noc2ccccc12,inactive: 18.1%
10,c1ccc(-c2nn[nH]n2)c(-c2nn[nH]n2)c1,inactive: 13.7%
11,Cc1ccc(NP(=O)(Oc2cccc(C)c2)Oc2cccc(C)c2)nc1,inactive: 5.95%
12,CCNC(=S)/N=C(\N)N[N+](=O)[O-],inactive: 12.1%
13,O=C(NC1CCS(=O)(=O)C1)NP(=S)(Oc1ccccc1)Oc1ccccc1 (stereo not given),inactive: -14.8%
14,COc1ccc(OP(C)(=O)Nc2ccc(SC(F)(F)F)cc2)cc1 (stereo not given),inactive: 1.12%
15,O=P1(N(CCCl)CCCl)OCCC2CCCCN21 (stereo not given),inactive: 5.88%
16,Cc1ccccc1CN(C)C(=O)COC(=O)C(O)(c1ccccc1)c1ccccc1,inactive: -24.4%
17,O=C(OCCN1CCN(CCOCc2ccccc2)CC1)C(O)(c1ccccc1)c1ccccc1,inactive: -7.54%
18,C[C@H]1OP(=O)(Oc2ccccc2)C[C@@H]2O[C@@H]21 (stereo not given in full),inactive: 5.9%
19,C[C@@H]1C=CCP(=O)(Oc2ccccc2)O1 (stereo not given in full),inactive: 7.78%
20,CC(=O)c1ccc(N2CC2c2ccncc2)cc1 (stereo not given),inactive: 9.53%
21,N#C/C(=C\c1ccc(N(CCBr)CCBr)cc1)C(N)=O,inactive: 3.68%
22,O=C(OC1CN2CCC1CC2)c1ccc([N+](=O)[O-])cc1 (stereo not given),inactive: 5.3%
23,COC(=O)C1(C)COP(=O)(NCc2ccccc2)OC1 (stereo not given),inactive: 6.05%
24,CC(=O)Nc1ccc([As](=O)(O)O)c(O)c1,inactive: 13.3%

row,Compound,GFP signal change (wild-type ribosome)
1,COc1ccc2c(c1O)-c1c(O)c(OC)cc3c1[C@H](C2)[N+](C)(C)CC3.O=[N+]([O-])c1cc([N+](=O)[O-])c([O-])c([N+](=O)[O-])c1[O-],inactive: 25.7%
2,O=[N+]([O-])c1cc([N+](=O)[O-])c(Nc2ccc(Cl)cc2)c([N+](=O)[O-])c1,inactive: -58%
3,CCOc1ccc(C2=NCC(CBr)S2)cc1 (stereo not given),inactive: 4.18%
4,CC(C)(C)C(=O)NC(Sc1ccccc1)C(Cl)(Cl)Cl (stereo not given),inactive: -26.5%
5,CC(C)c1ccc(OP(C)(=O)Nc2ccc(SC(F)(F)F)cc2)cc1 (stereo not given),inactive: -3.97%
6,CCc1cc(O)c([N+](=O)[O-])c(C)c1[N+](=O)[O-],inactive: -50%
7,CP(=O)(Nc1ccccc1F)Oc1ccccc1 (stereo not given),inactive: 6.92%
8,CP(=O)(Nc1ccc(SC(F)(F)F)cc1)Oc1ccc(F)cc1 (stereo not given),inactive: -39%
9,CCOP(=O)(CC)OCC,inactive: 4.53%
10,O=[As](O)(c1ccccc1)c1ccc(O)cc1,inactive: -0.828%
11,Cc1cc(-c2cccc3ccccc23)c(C)cn1.O=[N+]([O-])c1cc([N+](=O)[O-])c(O)c([N+](=O)[O-])c1,inactive: -25.2%
12,O=[N+]([O-])c1cc([N+](=O)[O-])c(NCC2CCS(=O)(=O)C2)c([N+](=O)[O-])c1 (stereo not given),inactive: 1.24%
13,CC(=O)NC(SC(=S)N(C)C)C(Cl)(Cl)Cl (stereo not given),inactive: 18.1%
14,O=[N+]([O-])c1ccc(OP2(=O)COCCO2)cc1 (stereo not given),inactive: -4.12%
15,O=[N+]([O-])c1ncn(CCn2cnc([N+](=O)[O-])n2)n1,inactive: 5.97%
16,Cc1c(C(c2ccc3c(c2)OCO3)c2c(C)n(C)n(-c3ccccc3)c2=O)c(=O)n(-c2ccccc2)n1C.O=[N+]([O-])c1cc([N+](=O)[O-])c(O)c([N+](=O)[O-])c1,inactive: 5.27%
17,C/C(N)=N\P(=O)(OCc1ccccc1)OCc1ccccc1,inactive: 1.09%
18,C(Cc1nn[nH]n1)Cc1nn[nH]n1,inactive: 3.43%
19,Nc1ccc([As](=O)(O)c2ccc([N+](=O)[O-])cc2)cc1,inactive: 6.93%
20,O=P(Nc1ccccn1)(c1ccc(Br)cc1)c1ccc(Br)cc1,inactive: 6.26%
21,CN(C)C1(CNC(=O)c2ccc(Cl)c(S(N)(=O)=O)c2)CCCCC1,inactive: 9.09%
22,COc1ccc(NP(C)(=O)Oc2ccccc2OC)cc1 (stereo not given),inactive: 3.17%
23,O=P(Nc1nc2ccccc2s1)(c1ccccc1)c1ccccc1,inactive: -16.7%
24,C[C@H]1OP(=O)(Oc2ccccc2)[C@H](O)[C@H](O)[C@H]1N=[N+]=[N-] (stereo not given in full),inactive: 8.86%

row,Compound,GFP signal change (wild-type ribosome)
1,O=[N+]([O-])c1ncn(CCn2ncnc2[N+](=O)[O-])n1,inactive: 9.79%
2,CC(C)(C)C(=O)NC(Sc1ccncn1)C(Cl)(Cl)Cl (stereo not given),inactive: 8.66%
3,O=C(O)CNc1ccc([As](=O)(O)O)cc1,inactive: 12.3%
4,COC(=O)C1(C)COP(=O)(Nc2ccccc2)OC1 (stereo not given),inactive: 7.12%
5,O=[N+]([O-])c1cccc(NC2=NCC(CBr)S2)c1 (stereo not given),inactive: -2.8%
6,O=P1(N(CCCl)CCCl)OCCCS1 (stereo not given),inactive: 13.8%
7,Nc1ccc2c(ccc3cccnc32)n1.O=[N+]([O-])c1cc([N+](=O)[O-])c(O)c([N+](=O)[O-])c1,inactive: -23.2%
8,CCOC(=O)c1ccc(NP(C)(=O)Oc2ccc(Cl)cc2)cc1 (stereo not given),inactive: -17.2%
9,O=C(Nc1cc([As](=O)(O)O)ccc1O)c1ccccc1,inactive: 6.43%
10,CCN(/C(=N/P(=O)(N1CCOCC1)N1CCOCC1)N1CCOCC1)c1ccc(OC)cc1,inactive: 4.43%
11,COc1ccccc1OP(C)(=O)Nc1ccccc1Br (stereo not given),inactive: -6.8%
12,Nc1ccc([As](=O)(O)c2ccc(N)cc2)cc1,inactive: 8.29%
13,C[N+]1=C2C=CC=CC=C2SC12C([N+](=O)[O-])=CC([N+](=O)[O-])=C[C-]2[N+](=O)[O-] (stereo not given),inactive: -2.23%
14,c1cc(-c2nn[nH]n2)ccc1-c1nn[nH]n1,inactive: -0.215%
15,CC(C)c1nc(Nc2ccccc2)n(P(=O)(N(C)C)N(C)C)n1,inactive: 6.87%
16,CN(C)C(=O)c1c([N+](=O)[O-])cc([N+](=O)[O-])cc1[N+](=O)[O-],inactive: 10.5%
17,CC(C)=N/N=C(\N)N[N+](=O)[O-],inactive: 6.53%
18,COc1ccc(C2=NCC(CBr)S2)cc1 (stereo not given),inactive: -0.775%
19,Cc1ccc(NP(=O)(Oc2ccccc2)Oc2ccccc2)nc1,inactive: 8.39%
20,CCc1ccc(OP(C)(=O)Nc2cccnc2)cc1 (stereo not given),inactive: 1.31%
21,O=[N+]([O-])c1cc([N+](=O)[O-])c(CCNc2ccccc2)c([N+](=O)[O-])c1,inactive: -10.3%
22,O=C(OCCCN1CCCC1)C(O)(c1ccccc1)C1CCCCC1 (stereo not given),inactive: 11.4%
23,O=C(NC(Sc1ccncn1)C(Cl)(Cl)Cl)c1ccccc1 (stereo not given),inactive: 6.41%
24,Nc1cc(N)c2nonc2c1[N+](=O)[O-],inactive: 8.05%

row,Compound,GFP signal change (wild-type ribosome)
1,CC(C)CC(=O)NC(Sc1ccc(Cl)cc1)C(Cl)(Cl)Cl (stereo not given),inactive: -14.7%
2,O=[N+]([O-])c1cc([N+](=O)[O-])c(Nc2ccccn2)c([N+](=O)[O-])c1,active: -31.8%
3,CN(C(=O)Cc1ccc(Cl)c(Cl)c1)[C@H]1CCCC[C@H]1N1CCCC1,inactive: 9.57%
4,COc1ccccc1OP(C)(=O)Nc1ccc(Br)cc1 (stereo not given),inactive: 3.85%
5,NC(=O)c1cc([N+](=O)[O-])cc([N+](=O)[O-])c1N,inactive: 7.04%
6,Clc1ccc(Cl)c(NC2=NCC(CBr)S2)c1 (stereo not given),inactive: -22.6%
7,COc1ccccc1OP(=O)(Nc1ccc(C)cn1)Oc1ccccc1OC,inactive: 20.4%
8,Cc1ccc(OP(=O)(Nc2nccs2)Oc2ccc(C)cc2)cc1,inactive: 4.36%
9,Nc1cccc2ccc([As](=O)(O)O)cc12,inactive: -19.9%
10,CCCCCCCCCCCCCCCC1C[N+](C)(C)CCOP(C)(=O)O1 (stereo not given),inactive: -55.1%
11,CP(=O)(Nc1ccc(Cl)cc1Cl)Oc1ccccc1 (stereo not given),inactive: -13.6%
12,CP(=O)(OCCOc1ccccc1)OCCOc1ccccc1,inactive: -7.47%
13,CN(C(=O)Cc1ccccc1)C1CC[C@@]2(CCCO2)C[C@@H]1N1CCCC1 (stereo not given in full),inactive: 6.69%
14,O=C1C(O)=C([N+](=O)[O-])C(=O)C(O)=C1[N+](=O)[O-],inactive: 18.4%
15,O=P(Nc1nc2ccc(Cl)cc2s1)(c1ccccc1)c1ccccc1,inactive: -48%
16,Cc1cc(C)cc(OP(C)(=O)Nc2cccc(C(F)(F)F)c2)c1 (stereo not given),inactive: 12.3%
17,CN(C)P(=O)(N(C)C)n1c(Nc2ccccc2)nnc1-c1ccccc1,inactive: -23.1%
18,CC(=O)Nc1ccc([As](=O)(O)O)cc1,inactive: 5.38%
19,O=C(O)c1ccccc1[As](=O)(O)O,inactive: -12.6%
20,CCCC1OP(N)(=O)OCC1CC (stereo not given),inactive: 14.9%
21,CCn1c(=O)n(C2CCN(CC3CCCCCCC3)C[C@H]2CO)c2ccccc21 (stereo not given in full),inactive: 2.88%
22,Cc1ccc(NP(=O)(Oc2ccccc2F)Oc2ccccc2F)nc1,inactive: 24.9%
23,COC(=O)C1(C)COP(=O)(N2CCCCCC2)OC1 (stereo not given),inactive: 3.77%
